Laboratory results: PubChem BioAssay AID504761 (Drosophila RNAi Screening Center, 2011)

Assay: 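Insect host genes that dengue virus relies on to spread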 (primary screen)
Cell system: D.Mel-2 cells from Drosophila
Reagents: long dsRNA against Drosophila genes
Treatment: infection with dengue virus type 2; dose and infection time not stated
Read-out: 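Per well on two replicate plates, imaging gave the percent of cells positive for viral envelope protein, ranked by infection, and a nuclear count of cells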
Reading the numbers: infection score: higher = more virus-infected cells; cell count: higher = more cells in the well
Rule for the call: 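Very low infection ranking in both replicate wells (chance probability at most 0.065), then a retest showing infection dropped 1.5-fold or more at p below 0.05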
Calls: active = confirmed: knock-down lowers infection; inactive = not picked or not confirmed
The deposit covers about 22,000 reagents; below is a random part of those with a known target gene and a result. In the full data, 116 (0.52%) are marked active. 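Calls depend on retest data that are not deposited; infection was ranked per plate without normalising between plates; the unit of the infection score is not given.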 Raw values are not corrected between plates. Names joined by + are all predicted targets of the reagent. Reagent sequences are not shown. Not stated in the record: the amount of reagent, the time to read-out.

gene	DRSC id	infection score, replicate 1	infection score, replicate 2	cell count, replicate 1	cell count, replicate 2	Outcome
CG5342	DRSC15776	6.74	6.37	6036	6328	inactive
CG14107	DRSC10110	2.16	0.72	5454	6117	inactive
CG14107	DRSC25136	6.07	5.52	6826	6988	inactive
CG14609	DRSC12553	9.76	7.17	6109	6208	inactive
Lcp3	DRSC07457	13.2	7.21	6726	6479	inactive
Lcp3	DRSC25185	3.1	8.7	6158	6161	inactive
CG5768	DRSC15870	3.9	3.44	6437	6545	inactive
CG13474	DRSC10018	1.55	2.68	5732	6147	inactive
CG6753	DRSC16108	1.65	28.3	6260	4326	inactive
CG6753	DRSC28449	12.3	7.75	3269	3316	inactive
CG1307	DRSC12492	23.5	14.4	5152	5838	inactive
5PtaseI	DRSC16269	3.5	3.7	6545	6492	inactive
5PtaseI	DRSC22090	1.01	2.25	6548	6680	inactive
5PtaseI	DRSC28773	1.07		749	399	inactive
Rlb1	DRSC16826	3.19	3.44	6780	6889	inactive
Rlb1	DRSC27846	5.56	3.43	1133	642	inactive
ms(3)76Cc	DRSC11071	0.95	6.88	6444	6323	inactive
ms(3)76Cc	DRSC21630	5.01	5.97	5954	6028	inactive
CG15597	DRSC12283	2.74	11.5	6237	5452	inactive
CG15597	DRSC24202	3.6	14.7	6465	5881	inactive
CG8260	DRSC20098	36.4	13.5	6026	5475	inactive
CG13038	DRSC09919	3.62	11.8	5636	5765	inactive
CG43894	DRSC10123	2.42	0.88	6274	6216	inactive
CG43894	DRSC25029	5.07	16.7	5898	6149	inactive
CG42506 (retired record) + CG43759	DRSC19464	12.6	1.28	6573	6580	inactive
CG42506 (retired record) + CG43759	DRSC19543	6.68	1.59	5704	5207	inactive
CG42506 (retired record) + CG43759	DRSC26393	2.62	2.1	6028	5917	inactive
CG17140 + CG17139	DRSC02585	8.39	2.09	6647	6888	inactive
CG17140 + CG17139	DRSC02586	3.5	3.91	6596	6466	inactive
rut	DRSC22976	3.31	20.9	6562	6310	inactive
CG15841 (retired record) + Acp33A	DRSC01859	4.18	6.15	6270	6370	inactive
CG7945	DRSC10934	20.6	22.2	5929	6743	inactive
Ugt37A3	DRSC15937	3.72	8.3	5997	6830	inactive
Tret1-1	DRSC07046	9.24	15.4	6212	7250	inactive
Tret1-1	DRSC07048	3.84	16.3	6610	4638	inactive
Tret1-1	DRSC25701	12	4.68	6296	5916	inactive
CG1492	DRSC19605	10.1	3.23	5937	6030	inactive
Tsp42Eg	DRSC06112	14.4	27.9	6712	5295	inactive
SKIP	DRSC14713	2.42	3.77	6663	5653	inactive
SKIP	DRSC14714	1.58	9.5	7287	5213	inactive
SKIP	DRSC15864	0.75	7.96	6785	4947	inactive
SKIP	DRSC16195	8.47	7.08	5996	6004	inactive
SKIP	DRSC16196	2.49	10	6377	6883	inactive
slim	DRSC06921	4.44	5.44	6236	6807	inactive
CG2691	DRSC19866	4.14	3.24	6180	6445	inactive
Scsalpha2	DRSC16003	1.49	6.56	6778	6434	inactive
CG33267	DRSC09120	1.31	1.53	6091	6480	inactive
CG14621	DRSC20635	6.18	2.26	5810	5706	inactive
CG14621	DRSC27094		3.5		3571	inactive
CG7299	DRSC03043	2.87	3.35	6695	6860	inactive
CG7299	DRSC25553	6.62	6.55	7028	6092	inactive
CG14610 + asRNA:CR42738	DRSC12554	2.14	2.91	6544	6643	inactive
NP15.6	DRSC16756	2.16	0.6	5970	6125	inactive
NP15.6	DRSC26741	28.8	23.4	5215	5902	inactive
CG2145	DRSC19835	2.75	1.5	6431	6276	inactive
CG2145	DRSC27564	22.8	10.1	6375	6051	inactive
CG15651	DRSC04242	7.5	7.27	6803	7138	inactive
CG3191	DRSC18530	1.11	3.5	6036	6548	inactive
CG3191	DRSC29390		9.12	326	5601	inactive

Part of the list above, limited to “infection score, replicate 1”:
Tret1-1 [DRSC25701]	12
CG1492 [DRSC19605]	10.1
Tsp42Eg [DRSC06112]	14.4
SKIP [DRSC14713]	2.42
SKIP [DRSC14714]	1.58
SKIP [DRSC15864]	0.75
SKIP [DRSC16195]	8.47
SKIP [DRSC16196]	2.49
